Results: article PMC5520654 (Journal of immunology (Baltimore, Md. : 1950), 2017)

Conditions: 20 h incubation, Supplemental Figure 1

In the case of CB-TE1A1P-PEG4-LLP2A [^64Cu-LLP2A], the “stability in macaque serum (decomposition or free copper)” value is reported as “no decomposition or free copper”.
